Measured values from several laboratories, pooled; numbers as filed in NIAID ChemDB.

All rows: whole-cell or culture tests; organism: Herpes simplex virus 1; cell line: MRC-5; measure: EC50

Lines come from different laboratories, so protocols vary.

structure	strain or isolate	read by	value
Cc1cn([C@H]2C[C@H](O)[C@@H](CO)O2)c(=O)[nH]c1=O	TK-	plaque count	>413 µM
Nc1nc2c(ncn2CC/C=C\P(=O)(O)O)c(=O)[nH]1	SC16	cytopathic effect	>300 µM
COc1cc([C@@H]2c3cc(O)c(O)cc3C[C@H]3COC(=O)[C@@H]32)cc(OC)c1OC	INOUE	-	0.224 µg/mL
O=c1[nH]c(=O)n([C@H]2C[C@H](O)[C@@H](CO)O2)cc1F	KOS	plaque count	259 µM
Nc1ncnc2c1ncn2CC/C=C/P(=O)(O)O	SC16	cytopathic effect	>300 µM
CCCCCCCCCCCCCCCCCCOC[C@H](COP(=O)(O)C(=O)O)OCc1ccccc1	WILD TYPE	-	14.8 µM
O=c1ccn([C@H]2C[C@H](O)[C@@H](CO)O2)c(=S)[nH]1	TK-	plaque count	>412 µM
CCCCCCCCCCCCCCCCCCOC[C@@H](O)COP(=O)(O)C(=O)O	-	-	0.63 µM
O=c1[nH]c(=O)n([C@H]2C[C@H](O)[C@@H](CO)O2)cc1/C=C/Br	-	plaque count	<0.05 µM
Nc1ncnc2c1ncn2OCC/C=C\P(=O)(O)O	SC16	cytopathic effect	>300 µM
CCCCCCCCCCCCSC[C@H](O)COP(=O)(O)C(=O)O	-	-	41 µM
NC(=O)c1cc2ccncc2c2sc3ccccc3c12	MCRAE	cytopathic effect	0.08 µg/mL
CCCCCCCCCCCCCCCCCCSC[C@H](O)COP(=O)(O)C(=O)O	-	-	5 µM
Nc1nc2c(ncn2OCC/C=C\P(=O)(O)O)c(=O)[nH]1	SC16	cytopathic effect	>300 µM
Cc1cn([C@@H]2O[C@H](CO)[C@@H](O)[C@@H]2O)c(=S)[nH]c1=O	TK-	plaque count	>365 µM
CCCCCCCCSC[C@H](O)COP(=O)(O)C(=O)O	-	-	85 µM

For reference, 2 entries again:

structure | strain or isolate | read by | value
CCCCCCCCCCCCSC[C@H](O)COP(=O)(O)C(=O)O | - | - | 41 µM
O=c1ccn([C@H]2C[C@H](O)[C@@H](CO)O2)c(=S)[nH]1 | TK- | plaque count | >412 µM

Blank or dashed fields: not listed here. ECn is the concentration giving n% inhibition of infection, replication or growth.